Experimental data: patent publication WO2022250107A1, “Human neutralizing antibody against wild-type strain and mutant strain of sars-cov-2, and antigen-binding fragment thereof” (dated 2022)

Assays:
Test in all cases: cell-based or functional assay
[1] = target: S protein of SARS-CoV-2 alpha strain 1 (JPN/QK002/2020, Accession ID EPI_ISL_768526; on infectious virus) (SARS-CoV-2, UniProt P0DTC2 14-1273)
[2] = target: S protein of SARS-CoV-2 delta strain JPN/TKYTK1734/2021 (on infectious virus) (SARS-CoV-2, UniProt P0DTC2 14-1273)
[3] = target: S protein of SARS-CoV-2 alpha strain 2 (Accession ID EPI_ISL_804007; on infectious virus) (SARS-CoV-2, UniProt P0DTC2 14-1273)

Measured: 中和活性 IC50 (inhibition of infection of VeroE6/TMPRSS2 cells)

B1: EV053272 (antibody, V domains shown)
VH: QVQLVQSGAEVKKPGSSVKVSCKASGGTFSSYAISWVRQAPGQGLKWMGGIIPIFGTAKYAQKFQGRVTITADESTSTAYMELSSLRSEDTAVYYCASGRPVTIGVSSTTGVFDYWGQGTLVTVSS
VL: DIVMTQSPDSLAVSLGERATINCKSRQSVLYSSNNKNYLAWYQQKPGQPPKLLIYWASTRESGVPDRFSGSGSGTDFTLTISSLQAEDVAVYYCQQYYSSPITFGQGTRLEIKR
≤ 10 ng/mL: all assays above
